We go through 13 molecules from patent publication US20150023988A1.

Where “and” joins values, the source holds several entries; their conditions need not be identical. Equal values may be shown once.

Common to all, as to experiment: cell-based or functional assay
Assay [1] has as its target TTX-sensitive Nav channels in mouse DRG neurons.
The target of assay [2] is human voltage-gated sodium channel Nav1.4 (human) (UniProt P35499).
Assay [3] has as its target human voltage-gated sodium channel Nav1.5 (human) (UniProt Q14524).
Assay [4] concerns the target human voltage-gated sodium channel Nav1.7 (human) (UniProt Q15858).
Assay [5] concerns the target human voltage-gated sodium channel Nav1.3 (human), Q9NY46.
Assay [6] deals with human voltage-gated sodium channel Nav1.4 (human), P35499.
Assay [7] has as its target human voltage-gated sodium channel Nav1.5 (human), Q14524.
The target of assay [8] is human voltage-gated sodium channel Nav1.7 (human), Q15858.

Turning to “[Glu20, Trp29]JzTx-V(1-29) (peptide; modification not given)”, the 1.x/1.7, partially inactivated in assay [1] is 1210 fold and 917 fold.

“Pra-[Nle6]JzTx-V(1-29) (peptide; modification not given)” showed a 1.x/1.7, partially inactivated in assay [1] of 6340 fold. Besides, the PX hNav1.4 Tonic IC50 in assay [2] was 0.004 µM and 0.0025 µM. Moreover, the PX hNav1.5 Tonic IC50 in assay [3] is 0.97 µM and 0.7 µM. In assay [4], this molecule had an IC50 (IonWorks Quattro) of 0.008 µM.

For the molecule YCQKWLWTCDSKRGCCEGLRCKLWCRKII (modifications not checked) [[Nle6,Pra14]JzTx-V(1-29)], the IC50 (IonWorks Quattro) in assay [5] is 0.06 µM; in assay [6], 0.09 µM; in assay [7], more than 7 µM; in assay [8], 0.07 µM. Further, the Nav1.4/Nav1.7 (ratio of IC50s) in assay [6] stood at 1.

Turning to YCQKKMWTCDSKRACCEGLECKLWCRKYI (modifications not checked) [[Lys5;Glu20;Tyr28]JzTx-V(1-29)], the IC50 (IonWorks Quattro) in assay [5], in assay [6], in assay [7] and in assay [8] was more than 5 µM in each case.

YCQKWMNTCDSKRACCEGLECKLWCRKYI (modifications not checked) [[Asn7;Glu20;Tyr28]JzTx-V(1-29)]: the IC50 (IonWorks Quattro) in assay [5] was more than 7 µM; in assay [7], more than 7 µM; in assay [8] it was 5 µM. Also, the Nav1.4/Nav1.7 (ratio of IC50s) in assay [6] was determined as 1.

Turning to YCQKWMETCDSKRACCEGLECKLWCRKYI (modifications not checked) [[Glu7,20;Tyr28]JzTx-V(1-29)], the IC50 (IonWorks Quattro) in assay [5], in assay [6], in assay [7] and in assay [8] was more than 7 µM throughout.

As for YCQKWMSTCDSKRACCEGLECKLWCRKYI (modifications not checked) [[Ser7;Glu20;Tyr28]JzTx-V(1-29)], the IC50 (IonWorks Quattro) in assay [5], in assay [6] and in assay [7] was more than 7 µM each time.

Take YCQKNMWTCDSKRACCEGLECKLWCRKYI (modifications not checked) [[Asn5;Glu20;Tyr28]JzTx-V(1-29)]: the IC50 (IonWorks Quattro) in assay [5], in assay [6], in assay [7] and in assay [8] was more than 5 µM throughout.

Regarding YCQKEMWTCDSKRACCEGLECKLWCRKYI (modifications not checked) [[Glu5,20;Tyr28]JzTx-V(1-29)], the IC50 (IonWorks Quattro) in assay [5], in assay [6], in assay [7] and in assay [8] was more than 7 µM throughout.

For YCQKWMKTCDSKRACCEGLECKLWCRKYI (modifications not checked) [[Lys7;Glu20;Tyr28]JzTx-V(1-29)], the IC50 (IonWorks Quattro) in assay [5], in assay [6] and in assay [7] was more than 7 µM each time.

Take YCQKWVWTCDSKRACCEGLECKLWCRKII (modifications not checked) [[Nva6;Glu20]JzTx-V(1-29)]: the IC50 (IonWorks Quattro) is more than 5 µM in assay [5], more than 5 µM in assay [6], 9.2 µM in assay [7] and 0.69 µM in assay [8]. The Nav1.4/Nav1.7 (ratio of IC50s) in assay [6] was 7.

As for YCQKLMWTCDSKRACCEGLECKLWCRKYI (modifications not checked) [[Leu5;Glu20;Tyr28]JzTx-V(1-29)], the IC50 (IonWorks Quattro) in assay [5], in assay [6], in assay [7] and in assay [8] was more than 5 µM in each case.

With YCQKWLWTCDSKRACCEGLRCALWCRKII (modifications not checked) [[Nle6;Atz(NPEG10)22]JzTx-V(1-29)], the IC50 (IonWorks Quattro) in assay [5], in assay [6], in assay [7] and in assay [8] was more than 7 µM throughout.
